Results published in patent publication US20220401514A1, “ANTIMICROBIAL, BACTERIOPHAGE-DERIVED POLYPEPTIDES AND THEIR USE AGAINST GRAM-NEGATIVE AND ACID-FAST BACTERIA” (CONTRAFECT CORPORATION, priority 2019, published 2022).

Test system: P. aeruginosa strain CFS 1292
Format: cell-based, Pseudomonas aeruginosa
Settings: 21-day study, duplicates (1),(2)

NC[C@H]1O[C@H](O[C@H]2[C@H](O)[C@@H](O[C@H]3O[C@H](CO)[C@@H](O)[C@H](N)[C@H]3O)[C@H](N)C[C@@H]2N)[C@H](N)C[C@@H]1O [Tobra]
Serial Passage MIC Day 0: 0.125 µg/mL
